Measured values from patent US6528295B2, “Protein phosphatase methylesterase” (priority 1998, dated 2003).

The chains behind the UniProt entries cited, without tags or fusion partners.
UniProt P67775, whole entry, looked up: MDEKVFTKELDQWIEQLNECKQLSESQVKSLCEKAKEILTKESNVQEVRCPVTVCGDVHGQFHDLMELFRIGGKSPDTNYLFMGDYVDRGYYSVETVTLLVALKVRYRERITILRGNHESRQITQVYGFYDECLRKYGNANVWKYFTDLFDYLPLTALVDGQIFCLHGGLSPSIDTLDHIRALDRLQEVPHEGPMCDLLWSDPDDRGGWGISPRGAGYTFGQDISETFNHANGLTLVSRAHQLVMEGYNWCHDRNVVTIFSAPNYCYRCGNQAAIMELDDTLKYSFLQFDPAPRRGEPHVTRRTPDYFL
UniProt P67775, whole entry H59Q, looked up: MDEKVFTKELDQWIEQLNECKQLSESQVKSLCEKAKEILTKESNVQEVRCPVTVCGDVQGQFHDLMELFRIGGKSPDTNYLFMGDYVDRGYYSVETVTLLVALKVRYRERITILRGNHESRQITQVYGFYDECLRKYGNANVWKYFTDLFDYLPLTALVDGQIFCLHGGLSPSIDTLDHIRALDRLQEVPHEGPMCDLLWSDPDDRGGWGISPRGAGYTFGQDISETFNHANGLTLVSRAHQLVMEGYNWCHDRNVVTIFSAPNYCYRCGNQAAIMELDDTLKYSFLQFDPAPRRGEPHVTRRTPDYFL

Assays:
PP2A = PP2A (Homo sapiens, UniProt P67775); assay: PP2A phosphatase inhibition using phosphorylase a as substrate; assay type: biochemical; conditions: separate experiment
H59Q/PME-1 complex = H59Q/PME-1 complex (Homo sapiens, UniProt P67775, H59Q); conditions: NIH3T3 lysis buffer with sodium vanadate 1 mM; NaF 50 mM; okadaic acid 500 nM; PAO 10 μM; Na4P2O7 20 mM

SMILES: O=[As]c1ccccc1 (centres unmarked)
- inhibition of PP2A (PP2A): no
- amount of PME-1 bound to (complexed with) H59Q C subunit (H59Q/PME-1 complex): not
